Measured values from several laboratories, pooled; numbers as filed in NIAID ChemDB.

All rows: tests on isolated targets; species: HIV-1; target: Integrase; endpoint: IC50

ICn is the concentration giving n% inhibition. Blank or dashed fields: not listed here. Rows are shuffled and stem from different studies.

O=C1c2ccc(O)c(O)c2C(=O)N1Cc1c(F)cccc1F ; read by: strand transfer ; result: 2.1 µM
O=C(O)/C=C/c1ccc(O)c(O)c1 ; strain or isolate: LAI ; read by: strand transfer ; result: >50 µg/mL
C[C@@H]1[C@@H](O)[C@H](C)C[C@@H]2C=C[C@H](C)[C@H](/C=C/C=C/C(=O)O)[C@@H]12 ; read by: strand transfer ; result: 25 µM
CS(=O)(=O)CS(=O)(=O)Nc1cc(O)c(O)c2c1C(=O)N(Cc1ccccc1)C2=O ; read by: 3′ processing ; result: 8.3 µM
O=C1c2c(ccc(O)c2O)CN1Cc1ccc(F)c(Cl)c1 ; read by: strand transfer ; result: 0.16 µM
CSc1nc(Cl)c(Br)c(Sc2nc(N)nc3nc[nH]c23)n1 ; read by: 3′ processing ; result: >250 µM
CC1(C)OC(=O)/C(=C/C(=O)c2c[nH]c3ccc(Br)cc23)O1 ; read by: strand transfer / fluorescence ; result: 11.9 µM
O=[N+]([O-])c1cccc(S(=O)(=O)c2cccc([N+](=O)[O-])c2)c1 ; read by: strand transfer ; result: >100 µM
Cc1cn(C2CC(OP(=O)(O)OCC3OC(n4cnc5c(N)ncnc54)CC3O)C(COP(=O)(O)OC3CC(n4ccc(N)nc4=O)OC3CO)O2)c(=O)[nH]c1=O ; read by: strand transfer ; result: 25 µM
Cc1ccc(S(=O)(=O)n2cc(C(=O)/C=C3\OC(C)(C)OC3=O)c3cc(Br)ccc32)cc1 ; mutations: Y143R ; read by: strand transfer / fluorescence ; result: 5 µM
CN(C)C1C(=O)C(C(=O)NCNC2C(=O)N3C2SC(C)(C)C3C(=O)O)=C(O)C2(O)C(=O)C3=C(O)c4c(O)cccc4C(C)(O)C3CC12 ; strain or isolate: RF ; read by: strand transfer ; result: 2.8 µM
Nc1ccn(C2CC(OP(=O)(O)OCC3OC(n4cnc5c(N)ncnc54)CC3OP(=O)(O)OCC3OC(n4cnc5c(=O)[nH]c(N)nc54)CC3O)C(CO)O2)c(=O)n1 ; read by: 3′ processing ; result: 57 µM
CSCC[C@H](NCC(=O)Nc1ccc(S(=O)(=O)c2ccc(NC(=O)CN[C@@H](CCSC)C(=O)O)cc2)cc1)C(=O)O ; read by: strand transfer ; result: >100 µM
Cc1ccc(S(=O)(=O)n2cc(/C(O)=C/C(=O)C(=O)O)c3cc(F)ccc32)cc1 ; mutations: Y143R ; read by: strand transfer / fluorescence ; result: 9.8 µM
Cc1cn(C2CC(OP(=O)(O)OCC3OC(n4ccc(N)nc4=O)CC3O)C(COP(=O)(O)O)O2)c(=O)[nH]c1=O ; read by: strand transfer ; result: 37 µM
Cn1c(=O)c2[nH]c(SSc3nc4c([nH]3)c(=O)n(C)c(=O)n4C)nc2n(C)c1=O ; read by: 3′ processing ; result: >250 µM
Nc1nc2c(ncn2C2CC(O)C(COP(=O)(O)OC3CC(n4cnc5c(N)ncnc54)OC3COP(=O)(O)O)O2)c(=O)[nH]1 ; read by: strand transfer ; result: 9 µM
COC(=O)/C=C/c1ccccc1 ; read by: 3′ processing ; result: >100 µM
O=C(O)C(=O)/C=C(\O)c1cn(Cc2cc(F)ccc2F)c2ccc(F)cc12 ; mutations: Y143R ; read by: strand transfer / fluorescence ; result: 5.7 µM
O=C1c2c(ccc(O)c2O)CN1Cc1cccc(Cl)c1 ; read by: 3′ processing ; result: 72 µM
O=C1c2c(ccc(O)c2O)CN1Cc1ccc(F)cc1 ; read by: 3′ processing ; result: 282 µM
COc1ccccc1NC(=O)C1=CNC(C)=C(C(=O)Nc2ccccc2OC)C1c1c(Cl)cccc1Cl ; read by: 3′ processing ; result: >250 µM
Nc1ccn([C@H]2C[C@H](O)[C@@H](COP(=O)(O)O[C@H]3C[C@H](n4cnc5c(N)ncnc54)O[C@@H]3COP(=O)(O)O)O2)c(=O)n1 ; read by: strand transfer ; result: 3 µM
C=C1CC[C@H]2[C@](C)(CCC=C(C)C)[C@@H](OC(C)=O)CC[C@]2(C)[C@@H]1Cc1c(OC)oc(C)c(C)c1=O ; read by: strand transfer ; result: 25 µM
NC(CCSSCCC(N)P(=O)(O)O)P(=O)(O)O ; strain or isolate: RF ; read by: 3′ processing ; result: 294 µM
COc1cc(/C=C/c2ccc(OC)c(OC)c2)oc(=O)c1 ; read by: absorbance ; result: >100 µM
CN(C)[C@@H]1C(=O)C(C(=O)NCNC2(C(=O)[O-])CCCC2)=C(O)[C@@]2(O)C(=O)C3=C(O)c4c(O)cccc4[C@@](C)(O)[C@H]3C[C@@H]12.[Na+] ; strain or isolate: RF ; read by: strand transfer ; result: 2.1 µM
O=C(c1ccccc1)c1cccc(CN2C(=O)c3ccc(O)c(O)c3C2=O)c1 ; read by: 3′ processing ; result: 300 µM
CC1=c2c(oc3cc(O)c(Nc4c(C)cc(O)cc4O)c(C)c23)=CC(=O)C1=Nc1c(C)cc(O)cc1O ; read by: 3′ processing ; result: 5 µM
O=S(=O)(c1ccc(I)cc1)c1ccc(I)cc1 ; read by: strand transfer ; result: 90 µM
CC1(C)OC(=O)/C(=C/C(=O)c2cn(Cc3ccc(F)cc3)c3ccc(Br)cc23)O1 ; mutations: Y143R ; read by: strand transfer / fluorescence ; result: 16.2 µM
N#Cc1ccc(S(=O)(=O)c2ccc(C#N)cc2)cc1 ; read by: 3′ processing ; result: >100 µM
O=c1cc(-c2c(O)cc(O)cc2O)oc2cc(O)cc(O)c12 ; read by: 3′ processing ; result: 199 µM
O=C(O)c1ccc(S(=O)(=O)c2ccc(C(=O)O)c(C(=O)O)c2)cc1C(=O)O ; read by: 3′ processing ; result: 29.8 µM
O=C1C(O)=C(c2ccccc2C(=O)O)C(=O)C(O)=C1c1ccccc1C(=O)O ; read by: 3′ processing ; result: 23 µM
O=C1c2c(ccc(O)c2O)CN1Cc1cccc(Br)c1 ; read by: strand transfer ; result: 3.3 µM
COc1cc(-c2ccc(O)cc2)c(OC)c(O)c1-c1ccc(O)c(O)c1 ; read by: absorbance ; result: 2.8 µM
Oc1cc(O)c2c(c1)O[C@@H](c1ccc(O)c(O)c1)[C@H](O)C2 ; read by: 3′ processing ; result: 432 µM
CC(C)(C)OC(=O)C1[C@@H]2O[C@@]3(CCC[C@H]13)C(=O)c1cc3c(cc12)OCO3 ; read by: 3′ processing ; result: >250 µM
[N-]=[N+]=NC(=O)c1ccc(S(=O)(=O)c2ccc(F)cc2)cc1 ; read by: strand transfer ; result: 90 µM
O=C(/C=C/c1ccc(O)c(O)c1)O[C@@H]1C[C@](OC(=O)/C=C/c2ccc(O)c(O)c2)(C(=O)O)C[C@@H](O)[C@H]1O ; strain or isolate: LAI ; read by: disintegration ; result: 0.84 ± 0.08 µg/mL
O=[N+]([O-])c1cc(Cl)ccc1S(=O)(=O)c1ccccc1 ; read by: 3′ processing ; result: 87.5 µM
Nc1ccn(C2CC(O)C(COP(=O)(O)OC3CC(n4cnc5c(=O)[nH]c(N)nc54)OC3COP(=O)(O)O)O2)c(=O)n1 ; read by: strand transfer ; result: 100 µM
COC(=O)c1nc(=S)[nH]c(C(=O)OC)c1C(=O)c1ccc(O)c(OC)c1 ; read by: 3′ processing ; result: 238 µM
CN(C)[C@@H]1C(=O)C(C(=O)NCNC(CO)(CO)CO)=C(O)[C@@]2(O)C(=O)C3=C(O)c4c(O)cccc4[C@@](C)(O)[C@H]3C[C@@H]12.Cl ; strain or isolate: RF ; read by: strand transfer ; result: 0.5 µM
O=[N+]([O-])c1cc(C(F)(F)F)ccc1S(=O)(=O)c1ccccc1 ; read by: strand transfer ; result: >100 µM
Cc1ccc(S(=O)(=O)n2cc(C(C(=O)O)C(=O)O)c3cc(NC(=O)c4ccc(F)cc4)ccc32)cc1 ; mutations: Y143R ; read by: strand transfer / fluorescence ; result: >25 µM

A second listing of 5 rows from above:

smiles | strain or isolate | mutations | read by | result
O=C1c2ccc(O)c(O)c2C(=O)N1Cc1c(F)cccc1F | - | - | strand transfer | 2.1 µM
NC(CCSSCCC(N)P(=O)(O)O)P(=O)(O)O | RF | - | 3′ processing | 294 µM
CC1=c2c(oc3cc(O)c(Nc4c(C)cc(O)cc4O)c(C)c23)=CC(=O)C1=Nc1c(C)cc(O)cc1O | - | - | 3′ processing | 5 µM
Cc1ccc(S(=O)(=O)n2cc(C(=O)/C=C3\OC(C)(C)OC3=O)c3cc(Br)ccc32)cc1 | - | Y143R | strand transfer / fluorescence | 5 µM
COC(=O)/C=C/c1ccccc1 | - | - | 3′ processing | >100 µM